In data set [1] the test system is O=C(O)C1=CC(=O)[C@@H](O)[C@H](O)C1. Nature of the data set: purified protein. The note with it: pH 7.3; 25.0 °C.
The test system of data set [2] is NC(=O)C1=CN([C@@H]2O[C@H](COP(=O)(O)OP(=O)(O)OC[C@H]3O[C@@H](n4cnc5c(N)ncnc54)[C@H](OP(=O)(O)O)[C@@H]3O)[C@@H](O)[C@H]2O)C=CC1. Nature of the data set: purified protein. The note with it: pH 7.3; 25.0 °C.

For the substance (Mycobacterium tuberculosis H37Rv), the results for the Km in data set [1] and in data set [2] were 29 ± 2 µM and 11.0 ± 0.6 µM, respectively.

The values above are taken from article PMC2789096.
